Results of unrelated studies side by side (data: NIAID ChemDB).

Common to all: tests in culture; species: HIV-1

ECn is the concentration giving n% inhibition of infection, replication or growth.

smiles | mutations | method | measure | setting | cell line | strain or isolate | result
Cc1occc1C(=S)Nc1ccc(Cl)c(/C=N/OC(C)(C)C)c1 | RT-T139I | XTT | EC50 |  | CEM + CEM-SS | Calanolide A-resistant (RT T139I) | 0.3 µM
C[C@@H](CNC(=S)Nc1ccc(Cl)cn1)C1CCCCC1 |  | p24 | EC50 |  | PBMC | IIIB | >0.025 µM
CC1=CC2=C(C(C)C)C(O)C(=O)/C(=C\N[C@H](C)C(=O)O)C2C(O)=C1c1c(C)cc2c(C(C)C)c(O)c(O)c(C=N[C@@H](C)C(=O)O)c2c1O.[Na+].[Na+] |  | luciferase / reporter gene | EC50 |  | TZM-bl | NL4-3 | 0.16 µM
Cc1nnc(C(=O)NC(C)(C)c2nc(C(=O)NCc3ccc(F)cc3)c(O)c(=O)n2C)o1 |  | luciferase | EC50 |  | ACH2 + TZM-bl | SF162 | 0.00009 µM
Cc1cn([C@H]2C[C@H](N=[N+]=[N-])[C@@H](COP(=O)(OCCSC(=O)C(C)(C)C)OCCSC(=O)C(C)(C)C)O2)c(=O)[nH]c1=O |  | cytopathic effect / MTT | EC50 |  | CEM + CEM-SS | LAI | 0.015 µM
Cc1ccc(-c2c[nH]c(=S)n2NC(=S)Nc2ccc(Br)cc2)cc1 |  | syncytia / visual reading | EC50 |  | C8166 | IIIB | 3.39 µM
C[C@H](N)C(=O)O.[Na+] |  | luciferase | EC50 |  |  | IIIB | 0.41 µM
C[C@@H](CNC(=S)Nc1ccccn1)c1ccccc1 | RT-Y181C | p24 | EC50 |  | PBMC | NNRTI-resistant (RT Y181C) A17 | 2.34 µM
Cc1ccnc2c1NC(=O)c1cccnc1N2C1CC1 |  | RT activity | EC50 |  | PBMC | ROJO(SI) | 0.3 µM
Cc1ccc(-c2c[nH]c(=S)n2NC(=S)Nc2ccccc2C)cc1 |  | syncytia / visual reading | EC50 |  | C8166 | IIIB | 13.7 µM
CCN(CC)C(=O)Oc1nsnc1-c1c(Cl)cccc1Cl |  | cytopathic effect / MTT | EC50 |  | MT-4 | IIIB | 0.25 µM
O=C(/C=C(\O)c1ncn[nH]1)c1ccc(Cc2ccc(F)cc2)o1 |  |  | EC50 |  | PBMC |  | 0.14 µM
CN(C)C(=O)Oc1nsnc1-c1ccccc1Cl | RT-Y181C | cytopathic effect / MTT | EC50 |  | MT-4 | IIIB-R (RT-Y181C) | >162 µM
CC(=O)c1ccc(C)cc1NC(C(N)=O)c1c(Cl)cccc1Cl | RT-Y181C | MTT | EC50 |  | MAGI | IIIB | >10 µM
Cc1cn([C@@H]2C[C@@H](n3nnc4ccccc43)[C@H](O)[C@@H](CO)O2)c(=O)[nH]c1=O |  | p24 | EC50 |  | MT-4 |  | >100 µM
Cc1ccc(CCNC(=S)Nc2ccc(Br)cn2)cc1 |  | p24 | EC50 |  | PBMC | IIIB | 0.007 µM
COc1ccc(S(=O)(=O)N(CC(C)C)C[C@@H](O)[C@H](Cc2ccc(OCP(=O)(O)O)cc2)NC(=O)O[C@H]2CO[C@H]3OCC[C@H]32)cc1 |  |  | EC50 |  | MT-2 + MT-4 | IIIB | >50 µM
Cc1cn([C@H]2C[C@H](n3cc([N+](=O)[O-])nc3C)[C@@H](C(O)CO)O2)c(=O)[nH]c1=O |  | p24 | EC50 |  | MT-4 |  | >100 µM
Cc1cn([C@H]2C[C@H](N=[N+]=[N-])[C@@H](CO)O2)c(=O)[nH]c1=O | RT-V179D | XTT | EC50 |  | CEM + CEM-SS | NL4-3 | 0.003 µM
CC(C)OC(=O)OCOP(=O)(CO[C@H](C)Cn1cnc2c(N)ncnc21)OCOC(=O)OC(C)C |  | p24 | EC50 |  | PBMC | 288C | <0.005 µM
CC(C)(N)C(=O)O.[Na+] |  | luciferase | EC50 |  |  | NL4-3 | 0.34 µM
CCOC(=O)C(O)(c1c[nH]c2ccc(Br)cc12)C(F)(F)F |  |  | EC50 |  | TZM-bl | IIIB | 0.093 µM
O=C1CN([C@@H]2O[C@H](CO)[C@@H](O)[C@@H]2O)C(=O)CN1 |  | cytopathic effect / MTT | EC50 |  | MT-4 | IIIB | >125 µg/mL
Nc1ncnc2c1ncn2CCOCP(=O)(O)O |  | syncytia | EC50 |  | CEM | IIIB | 3.3 µM
COC(=O)C(O)(c1c[nH]c2ccc(F)cc12)C(F)(F)F |  |  | EC50 |  | TZM-bl | IIIB | 85.6 µM
Cc1cn([C@@H]2O[C@H](CO[Si](C)(C)C(C)(C)C)C3(OS(=O)(=O)C=C3N)[C@H]2O[Si](C)(C)C(C)(C)C)c(=O)n(CCc2ccccc2)c1=O |  |  | EC50 |  |  |  | 0.03–0.76 µM
C[C@H](CNC(=S)Nc1ccc(Br)cn1)c1ccccc1 | RT-Y181C | p24 | EC50 |  | PBMC | NNRTI-resistant (RT Y181C) A17 | 1.18 µM
Cc1cc(C#Cc2ccccn2)cc(C)c1Oc1ccnc(Nc2ccc(C#N)cc2)n1 | RES056 | MTT | EC50 |  | MT-4 | IIIB | >2.068 µM
Cc1cc(C)cc(C(=O)c2cc(Cl)ccc2OCCN2CCC(=O)NC2=O)c1 | K103N + Y181C | RT activity | EC50 | pseudotyped |  |  | >10 µM
CCC(NC(=S)Nc1ccc(Cl)cn1)c1ccccc1 |  | p24 | EC50 |  | PBMC | IIIB | 0.001 µM
Cc1cc(C#Cc2ccc(N)cc2)cc(C)c1Oc1ccnc(Nc2ccc(C#N)cc2)n1 | Y188L | MTT | EC50 |  | MT-4 | IIIB | 0.504 µM
S=C(Nc1ccc(Br)cc1)Nn1c(-c2ccc(Br)cc2)c[nH]c1=S |  | syncytia / visual reading | EC50 |  | C8166 | IIIB | 13 µM
Cc1cn([C@H]2C[C@@H](n3nnc4ccccc43)[C@H](O)[C@@H](CO)O2)c(=O)[nH]c1=O |  | p24 | EC50 |  | MT-4 |  | >100 µM
CNC(=O)CCCCn1c(=O)c(C)cn([C@@H]2O[C@H](CO[Si](C)(C)C(C)(C)C)C3(OS(=O)(=O)C=C3N)[C@H]2O[Si](C)(C)C(C)(C)C)c1=O |  |  | EC50 |  |  |  | 0.03–0.76 µM
Cc1cn([C@H]2C[C@H](F)[C@@H](CO)O2)c(=O)[nH]c1=O |  | syncytia | EC50 |  | CEM | IIIB | 0.0006 µg/mL
O=C1N(Cc2ccc(CO)cc2)[C@H](Cc2ccccc2)[C@H](O)[C@@H](O)[C@@H](Cc2ccccc2)N1Cc1ccc(CO)cc1 |  | virus yield | EC50 |  | PBMC | RF | <0.14 µM
Cc1cn([C@H]2C[C@H](F)[C@@H](C(C)O)O2)c(=O)[nH]c1=O |  | syncytia | EC50 |  | CEM | IIIB | 1.9 ± 1.6 µg/mL
CCC[C@@H](c1ccc(C(F)(F)F)cc1)N1CCN(C2(C)CCN(C(=O)c3c(C)ncnc3C)CC2)C[C@@H]1C |  |  | EC90 |  | PBMC | RU570 Clinical isolates | 0.00043 µM
C#CC1(CO)OC(n2cnc3c(N)nc(F)nc32)C2C=CC21 |  | p24 / antigen | EC50 |  | PBMC | NL4-3 | 0.014 µM
CCOC(=O)C(O)(c1cn(C)c2ccccc12)C(F)(F)F |  |  | EC50 |  | TZM-bl | IIIB | 0.309 µM
Cc1csc(NC(=S)NC[C@H](C)c2ccccc2)n1 |  | p24 | EC50 |  | PBMC | IIIB | 0.055 µM
CCCc1cc(=O)oc2c3c(c4c(c12)OC(C)(C)C=C4)O[C@@H](C)[C@H](C)[C@@H]3O |  | RT activity | EC50 |  | U-937 | IIIB | 0.3 µM
Cc1cc(C#N)cc(C)c1Oc1nc(Nc2ccc(C#N)cc2)nc(N)c1Br | L100I | MTT | EC50 |  | MT-4 | IIIB | 0.0054 µM
CCCc1cc(=O)oc2c3c(c4c(c12)OC(C)(C)C=C4)O[C@H](C)[C@@H](C)[C@@H]3O | RT-A98G | XTT | EC50 |  | CEM + CEM-SS | NL4-3 | 0.2 µM
C#C[C@]1(CO)O[C@@H](n2cnc3c(N)ncnc32)C[C@@H]1O |  | p24 / antigen | EC50 |  | PBMC | NL4-3 | 0.011 µM
CN(C)C(=O)Oc1nsnc1-c1ccccc1 |  | cytopathic effect / MTT | EC50 |  | MT-4 | IIIB | 29 µM
Cc1ccccc1NC(=S)Nn1c(-c2ccc(Cl)cc2)c[nH]c1=S |  | syncytia / visual reading | EC50 |  | C8166 | IIIB | 3.37 µM
Cc1c(Sc2ccccc2)n(COCCO)c(=O)[nH]c1=O |  | p24 | EC50 |  | PBL(DAY 16) + PBL | IIIB | 2.2 µM
Cc1cc2c(C(C)C)c(C)c(O)c(C=O)c2c(O)c1-c1c(C)cc2c(C(C)C)c(O)c(O)c(C=O)c2c1O |  | luciferase | EC50 |  |  | NL4-3 | 0.64 µM
Nc1ccn([C@H]2CC[C@@H](CO)O2)c(=O)n1 |  | plaque count | EC50 |  | HELA/CD4 + HELA CD4+ | HXB2 | 0.42 µM
Nc1cc(OCCOCP(=O)(O)O)nc(N)n1 |  | syncytia | EC50 |  | CEM | IIIB | 3.1 µM
Nc1nc(=O)n([C@H]2CS[C@@H](CO)O2)cc1F | RT-M184I | plaque count | EC50 |  | HELA/CD4 + HELA CD4+ | HXB2 | 1.7 µM
Cc1cccc(C)c1Oc1ccnc(Nc2ccc(C#N)cc2)n1 | Y188L | MTT | EC50 |  | MT-4 | IIIB | 0.318 µM
Cc1cn([C@H]2C[C@H](N=[N+]=[N-])[C@@H](CO)O2)c(=O)[nH]c1=O |  | plaque count | EC50 |  | HT4 + HT4-6C | A012B | 0.005 µM
Cc1cn([C@H]2C[C@H](N=[N+]=[N-])[C@@H](CO)O2)c(=O)[nH]c1=O | K103N | MTT | EC50 |  | MT-4 | IIIB | 0.006 µM
CN(C)C(=O)Oc1nsnc1-c1cc(Cl)ccc1Cl |  | cytopathic effect / MTT | EC50 |  | MT-4 | IIIB | 0.37 µM
CC[C@@H](C)[C@@H](N/C=C1\C(=O)C(O)C(C(C)C)=C2C=C(C)C(c3c(C)cc4c(C(C)C)c(O)c(O)c(C=N[C@H](C(=O)O)[C@@H](C)CC)c4c3O)=C(O)C21)C(=O)O.[Na+].[Na+] |  | luciferase / reporter gene | EC50 |  | TZM-bl | NL4-3 | 0.1 µM
CCOC(=O)C(O)(c1c[nH]c2cccc([N+](=O)[O-])c12)C(F)(F)F |  |  | EC50 |  | TZM-bl | IIIB | 60.7 µM
Cc1ccc(-c2c[nH]c(=S)n2NC(=S)Nc2ccc(Cl)cc2)cc1 |  | syncytia / visual reading | EC50 |  | C8166 | IIIB | 3.43 µM
c1cc(CN2CCCNCCNCCCNCC2)ccc1CN1CCCNCCNCCCNCC1 |  | p24 | EC50 |  | PBMC | CM235 CLADE E R5 | >0.5 µM
COc1ccc(-c2c[nH]c(=S)n2NC(=S)Nc2ccc(Cl)cc2)cc1 |  | syncytia / visual reading | EC50 |  | C8166 | IIIB | 1.96 µM
COC(=O)/C=C/n1c(=O)c(C)cn([C@@H]2O[C@H](CO[Si](C)(C)C(C)(C)C)C3(OS(=O)(=O)C=C3N)[C@H]2O[Si](C)(C)C(C)(C)C)c1=O |  |  | EC50 |  |  |  | 0.03–0.76 µM
CC[C@@H](c1ccc(C(F)(F)F)cc1)N1CCN(C2(C)CCN(C(=O)c3c(C)ncnc3C)CC2)C[C@@H]1C |  |  | EC50 |  | PBMC | ADA-M Clinical isolates | <0.021 µM
CCOC(=O)C(O)(c1c[nH]c2ccc(C=O)cc12)C(F)(F)F |  |  | EC50 |  | TZM-bl | IIIB | 4.487 µM
Cc1cc(C#N)cc(C)c1Oc1nc(Nc2ccc(C#N)cc2)nc(N)c1Br |  | p24 | EC50 |  | PBMC | IIIB | 0.002 µM
Cc1cn([C@H]2C[C@H](N=[N+]=[N-])[C@@H](CO)O2)c(=O)[nH]c1=O |  |  | EC50 |  | CEM + CEM TK- | IIIB | >100 µM
C[C@@H](NC(=S)Nc1ccc(Cl)cn1)c1cccc2ccccc12 | RT-Y181C K103N | p24 | EC50 |  | PBMC | NNRTI-resistant (RT Y181C K103N) A17V | 0.367 µM
Cc1ccnc2c1NC(=O)c1cccnc1N2C1CC1 | Y181C | RT activity | EC50 | pseudotyped |  |  | >10 µM
COC(=O)C(O)(c1c[nH]c2ccc(C=O)cc12)C(F)(F)F |  |  | EC50 |  | TZM-bl | IIIB | 49 µM
S=C(NCCCn1ccnc1)Nc1nccs1 | RT-K103N Y181C | p24 | EC50 |  | PBMC | A17 | >100 µM
C[C@@H](NC(=S)Nc1nc2ccccc2s1)c1cccc2ccccc12 |  | p24 | EC50 |  | PBMC | IIIB | 0.205 µM
CN(C)C(=O)Oc1nsnc1-c1cccc(Cl)c1Cl | RT-Y181C | cytopathic effect / MTT | EC50 |  | MT-4 | IIIB-R (RT-Y181C) | >127 µM
C#C[C@]1(CO)O[C@@H](n2cnc3c(N)nc(F)nc32)C[C@@H]1O |  | p24 / antigen | EC50 |  | PBMC | NL4-3 | 0.00005 µM
Cc1cccc(C)c1OCC(=O)N[C@@H](Cc1ccccc1)[C@H](O)CN1CC[C@@H](Sc2ccncc2)C[C@H]1C(=O)NC(C)(C)C |  | p24 | EC50 |  | C8166 | IIIB | 0.002 µM
Cc1cn([C@H]2C[C@H](N=[N+]=[N-])[C@@H](CO)O2)c(=O)[nH]c1=O |  | luciferase | EC50 |  | ACH2 + TZM-bl | SF162 | 0.00138 µM
COC(=O)C(O)(c1cn(C(=O)OC(C)(C)C)c2ccccc12)C(F)(F)F |  |  | EC50 |  | TZM-bl | IIIB | >22.2 µM
Cc1cn([C@@H]2O[C@H](CO[Si](C)(C)C(C)(C)C)C3(OS(=O)(=O)C=C3N)[C@H]2O[Si](C)(C)C(C)(C)C)c(=O)n(CC2CC2)c1=O |  |  | EC50 |  |  |  | 0.03–0.76 µM
Cc1ccccc1NC(=S)Nn1c(-c2ccc(-c3ccccc3)cc2)c[nH]c1=S |  | syncytia / visual reading | EC50 |  | C8166 | IIIB | 8.45 µM
C[C@@H](CNC(=S)Nc1ccc(Cl)cn1)c1ccccc1 |  | p24 | EC50 |  | PBMC | IIIB | <0.001 µM
CC(C)[C@H](NC(=O)N(C)Cc1ccccn1)C(=O)N[C@@H](Cc1ccccc1)[C@H](O)[C@H](O)[C@H](Cc1ccccc1)NC(=O)[C@@H](NC(=O)N(C)Cc1ccccn1)C(C)C |  | cytopathic effect / MTT | EC50 |  | CEM | LAV | 0.15 µM
O=[N+]([O-])c1cccc2c1ncn2[C@@H]1O[C@H](CO)[C@@H](O)[C@H]1O |  | cytopathic effect / MTT | EC50 |  | MT-4 | IIIB | >125 µg/mL
CC1=CC2=C(C(C)C)C(O)C(=O)/C(=C\NC(C)(C)C(=O)O)C2C(O)=C1c1c(C)cc2c(C(C)C)c(O)c(O)c(C=NC(C)(C)C(=O)O)c2c1O.[Na+].[Na+] |  | luciferase / reporter gene | EC50 |  | TZM-bl | NL4-3 | 0.34 µM

Rows are shuffled and stem from different studies. An empty or dashed field is not shown. Two numbers with a dash give a range or band.